Measurements as given in PMC7645381, “Development and application of a high-throughput screening assay for identification of small molecule inhibitors of the P. falciparum reticulocyte binding-like homologue 5 protein” (International Journal for Parasitology: Drugs and Drug …, 2020).

Protein sequences, listed by entry. Tags and fused reporters are not part of them. Residues count along the entry.
UniProt Q8IFM5, 24-526 limits assumed: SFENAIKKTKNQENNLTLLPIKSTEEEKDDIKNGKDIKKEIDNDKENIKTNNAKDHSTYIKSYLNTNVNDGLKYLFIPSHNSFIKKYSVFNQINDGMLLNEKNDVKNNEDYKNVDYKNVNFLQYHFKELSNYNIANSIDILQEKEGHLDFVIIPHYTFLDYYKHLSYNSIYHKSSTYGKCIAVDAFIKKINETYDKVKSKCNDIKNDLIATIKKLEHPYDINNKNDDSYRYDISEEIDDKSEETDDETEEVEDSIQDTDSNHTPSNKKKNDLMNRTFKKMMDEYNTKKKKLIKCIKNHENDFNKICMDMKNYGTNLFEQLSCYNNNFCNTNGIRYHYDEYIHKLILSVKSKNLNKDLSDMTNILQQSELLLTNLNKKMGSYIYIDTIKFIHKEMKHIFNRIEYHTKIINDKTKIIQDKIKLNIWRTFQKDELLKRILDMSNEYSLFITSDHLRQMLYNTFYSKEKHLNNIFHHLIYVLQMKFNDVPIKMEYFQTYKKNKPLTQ

Molecular target: P. falciparum Rh5 (Rh5 – basigin interaction) (Plasmodium falciparum, UniProt Q8IFM5)
Experiment: Rh5-basigin AlphaScreen assay
Assay type: binding
Settings: highest concentration tested 50 μM

**Q.** For `CCCc1c(OCC(O)COc2ccc3c(=O)cc(C(=O)O)oc3c2CCC)ccc(C(C)=O)c1O` (stereo not shown) [FPL 55712, reference compound], which “Rh5 inhibitory activity in the AlphaScreen assay” value is on record?
**A.** Its value is “possess inhibitory activity”.
